Experimental data reported in US10646469B2, “Substituted indole derivatives as dengue viral replication inhibitors” (Janssen Pharmaceuticals, Inc., priority 2016, dated 2020).

Assays:
Format in all cases: cell-based, Dengue virus
DENV-2 16681 strain = assay: DENV-2 antiviral assay (eGFP-labeled virus in Vero cells); settings: SI=CC50/EC50, DENV-2 antiviral assay
Protocol: The antiviral activity of all the compounds of the invention was tested against the DENV-2 16681 strain which was labeled with enhanced green fluorescent protein (eGPF). The culture medium consists of minimal essential medium supplemented with 2% of heat-inactivated fetal calf serum, 0.04% gentamycin (50 mg/mL) and 2 mM of L-glutamine. Vero cells, obtained from ECACC, were suspended in culture medium and 25 μL was added to 384-well plates (2500 cells/well), which already contain the antiviral compounds. Typically, these plates contain a 5-fold serial dilution of 9 dilution steps of the test compound at 200 times the final concentration in 100% DMSO (200 nL). […] Finally, each plate contains wells which are assigned as virus controls (containing cells and virus in the absence of compound), cell controls (containing cells in the absence of virus and compound) and medium controls (containing medium in the absence of cells, virus and compounds). To the wells assigned as medium control, 25 μL of culture medium was added instead of Vero cells. Once the cells were added to the plates, the plates were incubated for 30 minutes at room temperature to allow the cells to distribute evenly within the wells. Next, the plates were incubated in a fully humidified incubator (37° C., 5% CO2) until the next day. Then, DENV-2 strain 16681, labeled with eGFP, was added at a multiplicity of infection (MOI) of 0.5. Therefore, 15 μL of virus suspension was added to all the wells containing test compound and to the wells assigned as virus control. In parallel, 15 μL of culture medium was added to the medium and cell controls. Next, the plates were incubated for 3 days in a fully humidified incubator (37° C., 5% CO2). At the day of the read out, the eGFP fluorescence was measured using an automated fluorescence microscope at 488 nm (blue laser). Using an in-house LIMS system, inhibition dose response curves for each compound were calculated and the half maximal effective concentration (EC50) was determined. Therefore, the percent inhibition (I) for every test concentration is calculated using the following formula: I=100*([…])/(SVC−SCC); ST, SCC and SVC are the amount of eGFP signal in the test compound, cell control and virus control wells, respectively. The EC50 represents the concentration of a compound at which the virus replication is inhibited with 50%, as measured by a 50% reduction of the eGFP fluorescent intensity compared to the virus control. The EC50 is calculated using linear interpolation (Table 1).

DENV-1 strain TC974 #666 = assay: Tetravalent RT-qPCR assay, serotype 1; settings: RT-qPCR serotype 1 TC974#666, Protocol A
Protocol: (§1) The antiviral activity of the compounds of the invention was tested against DENV-1 strain TC974 #666 (NCPV), DENV-2 strain 16681, DENV-3 strain H87 (NCPV) and DENV-4 strain H241 (NCPV) in a RT-qPCR assay. Therefore, Vero cells were infected with either DENV-1, or -2, or -3, or -4 in the presence or absence of test compounds. At day 3 post-infection, the cells were lysed and cell lysates were used to prepare cDNA of both a viral target (the 3′UTR of DENV; Table 2) and cellular reference gene (β-actin, Table 2). Subsequently, a duplex real time PCR was performed on a Lightcycler480 instrument. The generated Cp value is inversely proportional to the amount of RNA expression of these targets. Inhibition of DENV replication by a test compound results in a shift of Cp's for the 3′UTR gene. On the other hand, if a test compound is toxic to the cells, a similar effect on β-actin expression will be observed. The comparative ΔΔCp method is used to calculate EC50, which is based on the relative gene expression of the target gene (3′UTR) normalized with the cellular housekeeping gene (β-actin). In addition, CC50 values are determined based on the Cp values acquired for the housekeeping gene β-actin.
(§2) The culture medium consisted of minimal essential medium supplemented with 2% of heat-inactivated fetal calf serum, 0.04% gentamycin (50 mg/mL) and 2 mM of L-glutamine. Vero cells, obtained from ECACC, were suspended in culture medium and 75 μL/well was added in 96-well plates (10000 cells/well), which already contain the antiviral compounds. […] In addition, each plate contains wells which are assigned as virus controls (containing cells and virus in the absence of compound) and cell controls (containing cells in the absence of virus and compound). Once the cells were added in the plates, the plates were incubated in a fully humidified incubator (37° C., 5% CO2) until the next day. Dengue viruses serotype-1, 2, 3 and 4 were diluted in order to obtain a Cp of ˜22-24 in the assay. Therefore, 25 μL of virus suspension was added to all the wells containing test compound and to the wells assigned as virus control. In parallel, 25 μL of culture medium was added to the cell controls. Next, the plates were incubated for 3 days in a fully humidified incubator (37° C., 5% CO2). After 3 days, the supernatant was removed from the wells and the cells were washed twice with ice-cold PBS (˜100 μL). The cell pellets within the 96-well plates were stored at −80° C. for at least 1 day. Next, RNA was extracted using the Cells-to-CT™ lysis kit, according to the manufacturer's guideline (Life Technologies). The cell lysates can be stored at −80° C. or immediately used in the reverse transcription step.
(§3) In preparation of the reverse transcription step, mix A (table 3A) was prepared and 7.57 μL/well was dispensed in a 96-well plate. After addition of 5 μL of the cell lysates, a five minute denaturation step at 75° C. was performed (table 3B). Afterwards, 7.43 μL of mix B was added (table 3C) and the reverse transcription step was initiated (table 3D) to generate cDNA.
(§4) Finally, a RT-qPCR mix was prepared, mix C (table 4A), and 22.02 μL/well was dispensed in 96-well LightCycler qPCR plates to which 3 μL of cDNA was added and the qPCR was performed according to the conditions in table 4B on a LightCycler 480.
(§5) Using the LightCycler software and an in-house LIMS system, dose response curves for each compound were calculated and the half maximal effective concentration (EC50) and the half maximal cytotoxic concentration (CC50) were determined (Tables 5-8).

DENV-2 strain 16681 = assay: Tetravalent RT-qPCR assay, serotype 2; settings: RT-qPCR serotype 2 16681, Protocol A
Protocol: as §1, §2, §3, §4, §5

DENV-3 strain H87 = assay: Tetravalent RT-qPCR assay, serotype 3; settings: RT-qPCR serotype 3 H87, Protocol A
Protocol: as §1, §2, §3, §4, §5

DENV-4 strain H241 = assay: Tetravalent RT-qPCR assay, serotype 4; settings: RT-qPCR serotype 4 H241, Protocol A; ratio CC50 / EC50
Protocol: as §1, §2, §3, §4, §5

SMILES	SI (DENV-2 16681 strain)	SI (DENV-1 strain TC974 #666)	SI (DENV-2 strain 16681)	SI (DENV-3 strain H87)	SI (DENV-4 strain H241)
COc1cc(NC(C(=O)c2c[nH]c3ccc(C(F)(F)F)cc23)c2ccc(F)cc2OC)cc(OCCO)c1 (single isomer, unassigned) [Compound 1B, 2-(4-fluoro-2-methoxyphenyl)-2-((3-(2-hydroxyethoxy)-5-methoxyphenyl)amino)-1-(5-(trifluoromethyl)-1H-indol-3-yl)ethanone]	4840	2360	7070	241	48
COc1cc(NC(C(=O)c2c[nH]c3ccc(OC(F)(F)F)cc23)c2ccc(Cl)cc2OC)cc(OCCO)c1 (single isomer, unassigned) [Compound 13A, 2-(4-chloro-2-methoxyphenyl)-2-((3-(2-hydroxyethoxy)-5-methoxyphenyl)amino)-1-(5-(trifluoromethoxy)-1H-indol-3-yl)ethanone]	23000	1940	19700	>1010	>121
COc1cc(NC(C(=O)c2c[nH]c3c(C)cc(C(F)(F)F)cc23)c2ccc(F)cc2OC)cc(OCCO)c1 (single isomer, unassigned) [Compound 4B, 2-(4-fluoro-2-methoxyphenyl)-2-((3-(2-hydroxyethoxy)-5-methoxyphenyl)amino)-1-(7-methyl-5-(trifluoromethyl)-1H-indol-3-yl)ethanone]	7070	>3960	14000	>317	>41
COc1cc(NC(C(=O)c2c[nH]c3cc(OC)c(OC(F)(F)F)cc23)c2ccc(F)cc2OC)cc(OCCO)c1 (single isomer, unassigned) [Compound 6A, 2-(4-fluoro-2-methoxyphenyl)-2-((3-(2-hydroxyethoxy)-5-methoxyphenyl)amino)-1-(6-methoxy-5-(trifluoromethoxy)-1H-indol-3-yl)ethanone]	>7560	910	6430	>312	19
COc1cc(NC(C(=O)c2c[nH]c3cc(F)c(OC(F)(F)F)cc23)c2ccc(F)cc2OC)cc(OCCO)c1 (single isomer, unassigned) [Compound 7B, 2-(4-fluoro-2-methoxyphenyl)-1-(6-fluoro-5-(trifluoromethoxy)-1H-indol-3-yl)-2-((3-(2-hydroxyethoxy)-5-methoxyphenyl)amino)ethanone]	4580	>5240	>8710	>460	40
COc1cc(NC(C(=O)c2c[nH]c3c(C)cc(C(F)(F)F)cc23)c2ccc(Cl)cc2OC)cc(OCCO)c1 (single isomer, unassigned) [Compound 12A, 2-(4-chloro-2-methoxyphenyl)-2-((3-(2-hydroxyethoxy)-5-methoxyphenyl)amino)-1-(7-methyl-5-(trifluoromethyl)-1H-indol-3-yl)ethanone]	21500	>7400	>15400	>862	91
COc1cc(NC(C(=O)c2c[nH]c3cc(F)c(OC(F)(F)F)cc23)c2ccc(Cl)cc2OC)cc(OCCO)c1 (single isomer, unassigned) [Compound 15B, 2-(4-chloro-2-methoxyphenyl)-1-(6-fluoro-5-(trifluoromethoxy)-1H-indol-3-yl)-2-((3-(2-hydroxyethoxy)-5-methoxyphenyl)amino)ethanone]	10200	4720	18600	1130	47
COc1cc(NC(C(=O)c2c[nH]c3cc(F)c(C(F)(F)F)cc23)c2ccc(Cl)cc2OC)cc(OCCO)c1 (single isomer, unassigned) [Compound 11A, 2-(4-chloro-2-methoxyphenyl)-1-(6-fluoro-5-(trifluoromethyl)-1H-indol-3-yl)-2-((3-(2-hydroxyethoxy)-5-methoxyphenyl)amino)ethanone]	7820	>7140	>13400	>741	50
COc1cc(NC(C(=O)c2c[nH]c3cc(OC)c(C(F)(F)F)cc23)c2ccc(F)cc2OC)cc(OCCO)c1 (single isomer, unassigned) [Compound 2A, 2-(4-fluoro-2-methoxyphenyl)-2-((3-(2-hydroxyethoxy)-5-methoxyphenyl)amino)-1-(6-methoxy-5-(trifluoromethyl)-1H-indol-3-yl)ethanone]	8240	>2130	>10100	>158	>34
COc1cc(NC(C(=O)c2c[nH]c3c(C)cc(OC(F)(F)F)cc23)c2ccc(Cl)cc2OC)cc(OCCO)c1 (single isomer, unassigned) [Compound 16B, 2-(4-chloro-2-methoxyphenyl)-2-((3-(2-hydroxyethoxy)-5-methoxyphenyl)amino)-1-(7-methyl-5-(trifluoromethoxy)-1H-indol-3-yl)ethanone]	236				
COc1cc(NC(C(=O)c2c[nH]c3cc(F)c(C(F)(F)F)cc23)c2ccc(Cl)cc2OC)cc(OCCO)c1 (single isomer, unassigned) [Compound 11B, 2-(4-chloro-2-methoxyphenyl)-1-(6-fluoro-5-(trifluoromethyl)-1H-indol-3-yl)-2-((3-(2-hydroxyethoxy)-5-methoxyphenyl)amino)ethanone]	181				
COc1cc(NC(C(=O)c2c[nH]c3ccc(C(F)(F)F)cc23)c2ccc(Cl)cc2OC)cc(OCCO)c1 (racemic) [Compound 9, 2-(4-chloro-2-methoxyphenyl)-2-((3-(2-hydroxyethoxy)-5-methoxyphenyl)amino)-1-(5-(trifluoromethyl)-1H-indol-3-yl)ethanone]	17600				
